Values from PubChem BioAssay AID624099 (ICCB-Longwood, 2012)

Assay: 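Host factors E2 relies on to silence an HPV18 LCR reporter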 (primary screen)
System: human C33A cervical carcinoma cells (HPV-negative) stably expressing BPV1 E2 and an HPV18 LCR luciferase reporter
Reagents: siRNA pool against human genes, 40 nM
Time to read-out: 72 h
Read-out: 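HPV18 LCR reporter light per well, converted to plate-wise z-scores that exclude control wells, and averaged over triplicate plates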
Reading the numbers: mean z-score and z-score: higher = stronger reporter signal, weaker E2 silencing
Active means: 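Hit if mean z-score reaches 2 and two or more of three replicate z-scores also reach 2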
The whole screen tested about 21,000 reagents; below is an unselected part. Over the whole deposit, 497 (2.4%) are marked active. 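Higher z means weaker E2 silencing; only reporter increases were scored, and knock-downs that hurt cell survival may mask genuine repressor factors.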

For TEX13B (GeneID 56156), the entry reads mean z-score 0.53; z-score, replicate A = 0.32; z-score, replicate B = 0.98; z-score, replicate C = 0.31; inactive.
ENTPD2 (GeneID 954) gave mean z-score -0.31; z-score, replicate A = -0.07; z-score, replicate B = -0.23; z-score, replicate C = -0.62; inactive.
After knock-down of IL31RA (GeneID 133396), the screen gave mean z-score -1.03; z-score, replicate A = -0.93; z-score, replicate B = -1.18; z-score, replicate C = -0.97; inactive.
Silencing of RELL2 (GeneID 285613) gave: mean z-score 0.14; z-score, replicate A = 0.2; z-score, replicate B = 0.18; z-score, replicate C = 0.05; inactive.
Silencing of TMEM184C (GeneID 55751) gave: mean z-score -1; z-score, replicate A = -1; z-score, replicate B = -0.96; z-score, replicate C = -1.05; inactive.
Silencing of KCNJ15 (GeneID 3772) came out at: mean z-score -0.16; z-score, replicate A = -0.13; z-score, replicate B = -0.28; z-score, replicate C = -0.06; inactive.
After knock-down of LIF (GeneID 3976), the record shows mean z-score 0.14; z-score, replicate A = -0.05; z-score, replicate B = 0.46; z-score, replicate C = 0.02; inactive.
Depletion of AP1G2 (GeneID 8906) came out at: mean z-score 1.54; z-score, replicate A = 1.52; z-score, replicate B = 1.48; z-score, replicate C = 1.62; inactive.
Against TNIP2 (GeneID 79155) the deposit lists mean z-score -0.11; z-score, replicate A = -0.11; z-score, replicate B = -0.4; z-score, replicate C = 0.17; inactive.
TCEAL8 (GeneID 90843) showed mean z-score 0.88; z-score, replicate A = 0.55; z-score, replicate B = 0.95; z-score, replicate C = 1.15; inactive.
FAM180B (GeneID 399888) gave mean z-score 1.39; z-score, replicate A = 0.75; z-score, replicate B = 2.38; z-score, replicate C = 1.04; inactive.
ZC3HAV1 (GeneID 56829) gave mean z-score -0.03; z-score, replicate A = -0.2; z-score, replicate B = 0.13; inactive.
HBD (GeneID 3045) scored mean z-score 1.04; z-score, replicate A = 1.2; z-score, replicate B = 0.98; z-score, replicate C = 0.94; inactive.
With knock-down of CYP4F8 (GeneID 11283), the screen gave mean z-score 0.32; z-score, replicate A = 0.29; z-score, replicate B = 0.68; z-score, replicate C = -0.01; inactive.
With knock-down of HDLBP (GeneID 3069), the screen gave mean z-score -0.64; z-score, replicate A = -0.38; z-score, replicate B = -0.79; z-score, replicate C = -0.76; inactive.
Against CLNS1A (GeneID 1207), the entry reads mean z-score -0.92; z-score, replicate A = -1.08; z-score, replicate B = -0.81; z-score, replicate C = -0.87; inactive.
With knock-down of DEK (GeneID 7913), the record shows mean z-score -1.08; z-score, replicate A = -0.51; z-score, replicate B = -1.48; z-score, replicate C = -1.24; inactive.
Knock-down of STON1-GTF2A1L (GeneID 286749) came out at: mean z-score 2.05; z-score, replicate A = 1.48; z-score, replicate B = 2.1; z-score, replicate C = 2.58; active.
Silencing of CFAP70 (GeneID 118491) came out at: mean z-score 0.63; z-score, replicate A = 0.7; z-score, replicate B = 0.52; z-score, replicate C = 0.68; inactive.
Knock-down of ROR1 (GeneID 4919) came out at: mean z-score -0.18; z-score, replicate A = -0.61; z-score, replicate B = 0.06; z-score, replicate C = 0.01; inactive.
With knock-down of ACAT1 (GeneID 38), the record shows mean z-score 0.63; z-score, replicate A = 0.98; z-score, replicate B = 0.3; z-score, replicate C = 0.6; inactive.

Quoted from the entries so far (3 entries):
LIF (GeneID 3976): mean z-score = 0.14; z-score, replicate A = -0.05; z-score, replicate B = 0.46; z-score, replicate C = 0.02; outcome = inactive
AP1G2 (GeneID 8906): mean z-score = 1.54; z-score, replicate A = 1.52; z-score, replicate B = 1.48; z-score, replicate C = 1.62; outcome = inactive
TNIP2 (GeneID 79155): mean z-score = -0.11; z-score, replicate A = -0.11; z-score, replicate B = -0.4; z-score, replicate C = 0.17; outcome = inactive
